Experiment in all cases: cell-based or functional assay
In experiment [1] the target is T1, H1 HA A/NC/20/99 (on infectious virus) (influenza A virus A/NC/20/99 (H1N1)).
The target of experiment [2] is T2, H1 HA A/CA/07/09 (on infectious virus) (influenza A virus A/CA/07/09 (H1N1)).
Experiment [3] addresses T3, H1 HA A/swine/Iowa/31 (on infectious virus) (influenza A virus A/swine/Iowa/31 (H1N1)).
For experiment [4], the target named is T4, H1 HA A/NJ/76 (on infectious virus) (influenza A virus A/NJ/76 (H1N1)).
The target of experiment [5] is T2, H1 HA A/CA/07/09 (on infectious virus). The source holds these as a separate data set.
The target in experiment [6] is T3, H1 HA A/swine/Iowa/31 (on infectious …). The source holds these as a separate data set.
The target in experiment [7] is T1, H1 HA A/NC/20/99 (on infectious virus). This is another data set of the same source.
For experiment [8], the target named is H3 HA A/WY/3/03 (on infectious virus) (influenza A virus A/WY/3/03 (H3N2)).
For experiment [9], the target named is T5, H1 HA A/PR/8/34 (on infectious virus) (influenza A virus A/PR/8/34 (H1N1), UniProt P03452 18-565).
The target in experiment [10] is T6, H5 HA A/VN/1203/04 (on pseudotypes and on infectious virus) (influenza A virus A/VN/1203/04 (H5N1)).
Experiment [11] addresses T7, H1 HA A/SI/3/06 (on infectious virus) (influenza A virus A/SI/3/06 (H1N1)).
Experiment [12] has as its target T8, H5 HA A/INDO/5/05 (on pseudotypes and on infectious virus) (influenza A virus A/INDO/5/05 (H5N1)).
In experiment [13] the target is T6, H5 HA A/VN/1203/04 (on pseudotypes and …). The source holds these as a separate data set.
Experiment [14] addresses T7, H1 HA A/SI/3/06 (on infectious virus). This is another data set of the same source.
Experiment [15] addresses H9 HA A/ck/HK/G9/97 (on infectious virus) (influenza A virus A/ck/HK/G9/97 (H9N2)).
The target of experiment [16] is T9, H5 HA A/VN/1194/04 (on pseudotypes) (influenza A virus A/VN/1194/04 (H5N1)).
Experiment [17] concerns the target H5 HA A/Anhui/1/5 (on pseudotypes) (influenza A virus A/Anhui/1/5 (H5N1)).
Experiment [18] deals with H5 HA A/HK/213/03 (on pseudotypes) (influenza A virus A/HK/213/03 (H5N1)).
Experiment [19] addresses H5 HA A/WS/Mong/244/05 (on pseudotypes) (influenza A virus A/WS/Mong/244/05 …).
Experiment [20] addresses T6, H5 HA A/VN/1203/04 (on pseudotypes and …). The source holds these as a separate data set.
Experiment [21] addresses H5 HA A/HK/491/97 (on pseudotypes) (influenza A virus A/HK/491/97 (H5N1)).
Experiment [22] deals with T9, H5 HA A/VN/1194/04 (on pseudotypes). The source holds these as a separate data set.
In experiment [23] the target is T8, H5 HA A/INDO/5/05 (on pseudotypes and …). This is another data set of the same source.
The target of experiment [24] is H2 HA A/JP/305/57 (on infectious virus) (influenza A virus A/JP/305/57 (H2N2), UniProt P03451 16-562).
For experiment [25], the target named is T4, H1 HA A/NJ/76 (on infectious virus). The source holds these as a separate data set.
Experiment [26] has as its target T6, H5 HA A/VN/1203/04 (on pseudotypes and …). This is another data set of the same source.
Experiment [27] addresses T5, H1 HA A/PR/8/34 (on infectious virus). The source holds these as a separate data set.
Experiment [28] addresses T6, H5 HA A/VN/1203/04 (on pseudotypes and …). This is another data set of the same source.

Like-named read-outs stand apart in the source and are kept apart here. Bounds are passed on as bounds.

The values that follow come from patent US20100086555A1 (INSTITUTE FOR RESEARCH IN BIOMEDICINE, published 2010).

B1: FC41 (antibody, V domains shown)
VH: QVQLVQPGAEVKKPGSSVKVSCKASGGIFSPYAISWVRQAPGQGLEWMGGIIAIFGTTNYAQKFQGRVTITADKSTTTAYLELNSLRFEDTAVYYCARGGRYYVDYFDYWGQGTLVSVSS
VL: not shown
In the case of B1, the “Neutralization of infectious viruses (IC50)” value (shortened to “Neutralization … (IC50)”) worked out at 63 µg/mL in [1], 0.3 µg/mL in experiment [4], 0.2 µg/mL in experiment [5] and 0.5 µg/mL in experiment [6]. The Hemagglutination inhibition titer in experiment [2] amounted to 20; in experiment [3] it was 10. In addition, the “Neutralization H1N1 IC90” value in experiment [7] was 6.2 µg/mL. Moreover, in [8], the “Neutralization H3N2 IC50” value is above 50 µg/mL.

B2: FB75 (antibody, V domains shown)
VH: EVQLLESGGGLVHPGGSLRLSCAASGFTFSNYAMSWVRQAPGKGLEWVSSINSGGGATYYADSVKGRFTISRDNSKNTLSLQMNSLRAEDTAVYYCAKEGGNTIFGLVTMAYYFDSWGQGTLVTVSS
VL: QSALTQPASVSGSPGQSITISCTGTGSDVGSSNLVSWYQQHPAKAPKLIIYEVTKRPSGVSNRFSGSKSGNTASLTISGLQAEDEADYYCCSYAGSSSSRVFGTGTKVTVL
For B2, the “Neutralization … (IC50)” value in experiment [9] was determined as 10 µg/mL; in experiment [1], 36 µg/mL; in [10] it was 63 µg/mL; in experiment [11] it was 8 µg/mL; in experiment [12], 16 µg/mL. The “Neutralization H1N1 IC90” value is 3.1 µg/mL in experiment [7] and 6.2 µg/mL in [14]. For the same molecule, the “Neutralization H5N1 IC50” value in experiment [13] is above 50 µg/mL. The “Neutralization H9N2 IC50” value in experiment [15] was 5 µg/mL. Moreover, the “Neutralization H5pp IC90” value in experiment [16] is 0.002 µg/mL. Besides, the “Neutralization H3N2 IC50” value in experiment [8] is above 50 µg/mL. Moreover, the “Neutralization of HA-pseudotypes (IC90)” value turned out to be 0.026 µg/mL in experiment [17]; 0.013 µg/mL in [18]; 0.026 µg/mL in [19]; 0.02 µg/mL in [20]; 0.621 µg/mL in experiment [21]; 0.011 µg/mL in experiment [22]. In addition, in [23], the “Neutralization of HA-pseudotypes (IC90)” value turned out to be 0.054 µg/mL.

B3: FB177 (antibody, V domains shown)
VH: EVQLLESGGGLVHPGGSLRLSCAASGFTFSNYAMSWVRQAPGKGLEWVSSINSGGGATYYADSVKGRFTISRDNSKNTLSLQMNSLRAEDTAVYYCAKEGGNTIFGLVTMAYYFDSWGQGTLVTVSS
VL: QSALTQPASVSGSPGQSITISCTGTGSDVGSSNLVSWYQQHPAKAPKLIIYEVTKRPSGVSNRFSGSKSGNTASLTISGLQAEDEADYYCCSYAGSSSSRVFGTGTKVTVL
For the molecule B3, the “Neutralization … (IC50)” value in experiment [9] came to 20 µg/mL; in experiment [24], 63 µg/mL; in experiment [1] it was 40 µg/mL; in [11] it was 13 µg/mL; in experiment [12], 18 µg/mL. In addition, the “Neutralization of HA-pseudotypes (IC90)” value stood at 0.039 µg/mL in experiment [17]; 0.004 µg/mL in experiment [18]; 8.07 µg/mL in experiment [19]; 0.018 µg/mL in experiment [20]; 1.31 µg/mL in experiment [21]; 0.002 µg/mL in [22]. Moreover, the “Neutralization of HA-pseudotypes (IC90)” value in experiment [23] was 0.552 µg/mL.

B4: FB110 (antibody, V domains shown)
VH: EVQLLESGGGLVHPGGSLRLSCAASGFTFSNYAMSWVRQAPGKGLEWVSSINSGGGATYYADSVKGRFTISRDNSKNTLSLQMNSLRAEDTAVYYCAKEGGNTIFGLVTMAYYFDSWGQGTLVTVSS
VL: QSALTQPASVSGSPGQSITISCTGTGSDVGSSNLVSWYQQHPAKAPKLIIYEVTKRPSGVSNRFSGSKSGNTASLTISGLQAEDEADYYCCSYAGSSSSRVFGTGTKVTVL
Consider B4, for which the “Neutralization … (IC50)” value in [9] stood at 6 µg/mL; in [24] it was 7 µg/mL; in experiment [1], 22 µg/mL; in [10] it was 36 µg/mL; in experiment [11] it was 5 µg/mL; in experiment [12] it was 22 µg/mL. Also, the “Neutralization … (IC50)” value in experiment [27] is 0.4 µg/mL; in experiment [4] it was 1.2 µg/mL; in [28], above 50 µg/mL; in experiment [5] it was 0.4 µg/mL; in [6], 1.2 µg/mL. In addition, the Hemagglutination inhibition titer amounted to 160 in [25], 80 in [26], 320 in [2] and 160 in experiment [3]. The “Neutralization of HA-pseudotypes (IC90)” value in experiment [17] came to 0.037 µg/mL; in experiment [18], 0.013 µg/mL; in experiment [19], 0.06 µg/mL; in experiment [20] it was 0.017 µg/mL; in experiment [21] it was 3.62 µg/mL; in [22] it was 0.018 µg/mL. Besides, in [23], the “Neutralization of HA-pseudotypes (IC90)” value is 0.066 µg/mL.

B5: FB54 (antibody, V domains shown)
VH: QVQLVQSGAEVKKPGSSLKVSCKASGVTFSMYTISWVRQAPGQGLEWMGGIIPLFGTANYEQKFQGRVTITADTSTNTAYMELSSLRSEDTAVYYCARAGTTLTRFNWFDPWGQGTLVTVSS
VL: not shown
B5: in experiment [1], the “Neutralization … (IC50)” value amounted to 50 µg/mL. In experiment [7], the “Neutralization H1N1 IC90” value came out at 25 µg/mL.
